These results are taken from patent publication US11324216B2, “Methods for controlling root parasitic weeds: inhibitors of seed germination in Striga” (King Abdullah University of Science and Technology, priority 2017, dated 2022).

The chains behind the UniProt entries cited, without tags or fusion partners. Residues count along the entry.
UniProt A0A0M3PNA2, 1-271: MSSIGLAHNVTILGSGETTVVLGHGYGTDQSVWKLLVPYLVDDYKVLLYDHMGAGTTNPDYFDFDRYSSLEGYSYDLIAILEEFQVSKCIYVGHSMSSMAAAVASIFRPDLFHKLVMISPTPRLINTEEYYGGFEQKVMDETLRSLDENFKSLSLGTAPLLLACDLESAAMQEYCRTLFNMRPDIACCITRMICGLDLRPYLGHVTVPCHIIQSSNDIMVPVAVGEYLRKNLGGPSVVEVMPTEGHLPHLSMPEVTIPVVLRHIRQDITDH

Structures are written as SMILES.

In the assay the target is ShHTL7 (Striga hermonthica, UniProt A0A0M3PNA2). Kind of assay: Yoshimulactone Green (YLG) hydrolysis analysis. Particulars: read-out: IC50 of YLG hydrolysis by ShHTL7; pre-incubation 30 min, 1 μM YLG 60 min.

For the compound `CC(C)(C)CC(C)(C)c1ccc(OCCOCCOCCOCCOCCOCCOCCOCCOCCOCCOCCOCCOCCOCCOCCOCCOCCOCCOCCOCCOCCOCCOCCOCCOCCOCCOCCOCCOCCOCCOCCOCCOCCOCCOCCOCCOCCOCCOCCOCCOCCO)cc1`, the IC50 came to 11.5 µM.

A word on the IC50: it is the concentration at which inhibition is half-maximal.
